Earlier results as cited in US20230218581A1, “COMPOSITIONS AND METHODS COMPRISING DENDRIMERS AND THERAPEUTIC AGENTS” (The Johns Hopkins University, priority 2020, published 2023).

Tests used:
Zika virus [1] = details: human fetal astrocytes; tested form: 2HCl; cited from earlier work
Zika virus [2] = details: murine neuronal cell cultures; tested form: 2HCl; cited from earlier work
[3] = system: human immunodeficiency virus (HIV); details: tested form: 2HCl; cited from earlier work
[4] = system: kidney cells exposed to Epsilon-toxin; details: tested form: 2HCl; cited from earlier work

Q: For `O=C(C=Cc1ccc(C=CC(=O)Nc2ccc(C3=NCCN3)cc2)cc1)Nc1ccc(C2=NCCN2)cc1`, which Zika virus propagation (Zika virus [1]) is on record?
A: diminished Zika virus propagation

Q: And the “EV release and viral RNA levels” value (Zika virus [2])?
A: reduced EV release and diminished viral RNA levels

Q: And the “dendritic cell-mediated infection of healthy CD4+ T lymphocytes” value [3]?
A: reduced

Q: What about the cell death [4] of the same compound?
A: reduced cell-death
